Experimental data taken from paper PMC4538827.
The exact form of at least one protein or probe is not confirmed.

Legend:
[1] = tested on: σNS (sigma NS) (Avian reovirus strain 1733); experiment: SEC; conditions: recombinant protein; protein details: His-tag (pET-15b) removed with thrombin; label: AF488 3' end (Methods)
[2] = tested on: σNS (sigma NS) (Avian reovirus strain 1733); experiment: FCS; conditions: Rh 3.6 to 4.8 nm at 0.5-1 uM, 5.9 nm at 5-10 uM σNS; recombinant protein; protein details: His-tag (pET-15b) removed with thrombin; label: AF488; letters put together from the description
[3] = tested on: σNS (sigma NS) (Avian reovirus strain 1733); experiment: analytical ultracentrifugation (SV); conditions: 13S and 18S complexes, 1:1 and 2:1 hexamer:RNA; recombinant protein; protein details: His-tag (pET-15b) removed with thrombin; label: AF488; letters put together from the description
[4] = tested on: σNS (sigma NS) (Avian reovirus strain 1733); experiment: native ESI-MS; conditions: hexamer with 1 or 2 RNAs; recombinant protein; protein details: His-tag (pET-15b) removed with thrombin
[5] = tested on: σNS (sigma NS) (Avian reovirus strain 1733); experiment: single-molecule FRET (ALEX); conditions: unwinding, up to 20 uM σNS, 37 C; recombinant protein; protein details: His-tag (pET-15b) removed with thrombin; label: 5' AF488, 3' Texas Red; folded or branched DNA

“GACCUAUUCUCUUUUUCUCUCCUUUUCCCC [30-nt RNA]”: binds [1].

“GGGAGACCUAUUCUCUUUUUCUCUCCUUUUCCCCCCUGUUGCUUUAUUUUCCUUCUUUGCCUUUUUCUCUCUUUUUUUUUCUUUUUUCCCUUUCUGCUUUCCUCCCCUAUUCUCCCCUCUU [120-nt RNA]”: binds [2]; binds [3].

“GACCUAUUCUCUUUUUCUCU [20-nt RNA, unlabelled]”: binds [4].

“ATAGGTATAACAGTTAACGTATGCTATACGCTAATAGCATACGTTT [46-nt stem-loop]”: binds [5].
